The values that follow come from PMC6938011, “Antiplasmodial profile of selected compounds from Malaria Box: in vitro evaluation, speed of action and drug combination studies” (Malaria Journal, 2019).

Some results are limits rather than exact numbers.

In series [1] the test system is Hepatocarcinoma cells (HepG2). The series is described as follows: Cytotoxicity evaluation, neutral red assay. It counts as cell-based, human. The settings on record: ratio IC50^HepG2 (neutral red) / IC50^Pf. As to the method: (§1) Hepatocarcinoma cells (HepG2) were cultivated in RPMI medium supplemented with 10% (v/v) fetal bovine serum and 0.2% (v/v) penicillin/streptomycin. The antibiotics were added to the medium to eliminate the potential interference of microbial contamination. Cells were cultivated at 37 °C and 5% CO2; the supplemented medium was changed every 2 days.
(§2) For the experimental procedures, cells were trypsinized and transferred to a 96-well plate at 30,000 cells per well and incubated at 37 °C overnight for cell adhesion. Then, serial dilutions of the inhibitor candidates were added to the plate. Cells without any compounds were used as positive growth controls. The plate was incubated at 37 °C and 5% CO2 for 72 h. After incubation, the highest compound concentration to be considered (highest concentration without precipitation) was observed by microscopy. Cytotoxicity was evaluated by two different methods. The first is a colorimetric assay based on metabolic cell activity in the presence of 3-(4,5-dimethylthiazol-2-yl)-2,5-diphenyltetrazolium bromide (MTT). Briefly, mitochondrial enzymes can convert the MTT dye into the purple insoluble compound formazan. To each well, 20 µL MTT at 5 mg/mL was added, followed by incubation at 37 °C for 3 to 5 h. After incubation, the supernatant was removed, and formazan crystals were solubilized in 100 µL DMSO. The absorbance, which is proportional to the number of viable cells, was determined using a SpectraMAX Plus 384 plate reader (Molecular Devices Corp., Sunnyvale, CA) (λ = 570 nm). The second method is based on the uptake of neutral red, a dye that is retained inside the lysosomes of viable cells. To each well, after removal of culture media, 200 µL neutral red medium 40 µg/mL was added, followed by incubation at 37 °C for 3 to 5 h. After incubation, supernatant was dispensed, and 200 µL 0.5% (v/v) formaldehyde in 1% (m/v) CaCl2 was added to remove excess of the dye for 5 min. Supernatant was dispensed, and 100 µL alcohol-acid solution (50% (v/v) ethanol, 1% (v/v) glacial acetic acid) was added, and the plate was stirred until a homogeneous solution was formed. The absorbance was determined using a SpectraMAX Plus 384 plate reader (Molecular Devices Corp., Sunnyvale, CA) (λ = 540 nm). For both methods, the half maximal inhibitory concentration (IC50^HepG2) was determined by non-linear regression analysis of the resulting concentration-response curve using the software Origin 2016 (OriginLab Corporation).

For series [2], the system named is Hepatocarcinoma cells (HepG2). The experiment in a line: Cytotoxicity evaluation, MTT assay. The settings on record: ratio IC50^HepG2 (MTT) / IC50^Pf. It counts as cell-based, human. As to the method:
as §1, §2

On to `CCn1c(CN2CCN(Cc3ccccc3)CC2)nc2cc(NC(=O)c3cccs3)ccc21` [Compound 5], for which the “SI^NR Average (confidence interval-95%)” value in series [1] is listed as greater than 290. The “SI^MTT Average (confidence interval-95%)” value in series [2] is given as 340 (280–400).
Turning to `C[C@H]1[C@H](OC(=O)CCC(=O)O)O[C@@H]2O[C@@]3(C)CC[C@H]4[C@H](C)CC[C@@H]1[C@@]24OO3` [Artesunate, reference compound], the “SI^NR Average (confidence interval-95%)” value in series [1] is 7000 (6000–8000). For the same molecule, in series [2], the “SI^MTT Average (confidence interval-95%)” value was 7000 (6000–8000).
For the molecule `O=C1c2ccccc2-c2nnc(-c3ccc(Br)cc3)cc21` [Compound 6], the “SI^NR Average (confidence interval-95%)” value in series [1] was greater than 6.6. Moreover, the “SI^MTT Average (confidence interval-95%)” value in series [2] is greater than 6.6.
In the case of `CN1CCN(c2ccc(Nc3c4ccccc4nc4ccccc34)cc2)CC1` [Compound 1], the “SI^NR Average (confidence interval-95%)” value in series [1] is reported as 45.1 (44.6–45.6). Moreover, the “SI^MTT Average (confidence interval-95%)” value in series [2] was 43.4 (42.6–44.2).
Regarding `O=[N+]([O-])c1ccc(C=NNc2nc3ccccc3[nH]2)cc1` [Compound 4], the “SI^NR Average (confidence interval-95%)” value in series [1] is greater than 12. Also, the “SI^MTT Average (confidence interval-95%)” value in series [2] is listed as greater than 12.
Consider `O=C(Nc1ccc(C23CC4CC(CC(c5ccccc5)(C4)C2)C3)cc1)c1cccs1` [Compound 7], for which the “SI^NR Average (confidence interval-95%)” value in series [1] is greater than 21. The “SI^MTT Average (confidence interval-95%)” value in series [2] was greater than 21.
With `Fc1ccc2[nH]c3c(NCCCN4CCOCC4)ncnc3c2c1` [Compound 11], the “SI^NR Average (confidence interval-95%)” value in series [1] is on record as greater than 29. The “SI^MTT Average (confidence interval-95%)” value in series [2] is greater than 29.
On to `CCOC(=O)C1=C(C)N=c2sc(=Cc3cc(Cl)ccc3O)c(=O)n2C1c1ccc(OC)cc1` (stereo not drawn) [Compound 2], for which, in series [1], the “SI^NR Average (confidence interval-95%)” value is given as 55 (46–64). Also, the “SI^MTT Average (confidence interval-95%)” value in series [2] is reported as 60 (50–70).
In the case of `Brc1ccc(Nc2nc3ccccc3nc2Nc2ccc(Br)cc2)cc1` [Compound 3], in series [1], the “SI^NR Average (confidence interval-95%)” value is reported as greater than 16. In addition, the “SI^MTT Average (confidence interval-95%)” value in series [2] was 15.1 (14.6–15.6).
